A mixed list of measured activities; the numbers were collected in NIAID ChemDB.

Common to all: tests in culture; organism: Candida albicans; measure: MIC

Conditions beyond the fields shown may differ between rows.

{"compound": "Nn1c(SCC(O)(Cn2cncn2)c2ccc(Cl)cc2Cl)nnc1-c1ccc(Cl)cc1Cl", "strain": "IRFC 37", "read by": "broth dilution", "value": "2 µg/mL"}
{"compound": "CC(C)c1ccc(S(=O)(=O)Nc2ccc(CN(C)CC(O)(Cn3cncn3)c3ccc(F)cc3F)cc2)cc1", "strain": "CAAL-74", "read by": "resazurin", "value": "0.12 µg/mL"}
{"compound": "S=C(Nc1cccc(Cl)c1)Nc1nc(N2CCN(c3ccccc3)CC2)c2ccccc2n1", "strain": "MTCC 183", "read by": "agar / visual reading", "value": "25 µg/mL"}
{"compound": "Nn1c(SCC(O)(Cn2cncn2)c2ccc(Cl)cc2Cl)nnc1-c1ccc(Cl)cc1", "strain": "ATCC 18804", "read by": "broth dilution", "value": ">64 µg/mL"}
{"compound": "S=C(Nc1ccccc1)Nc1nc(N2CCN(c3ccccc3)CC2)c2ccccc2n1", "strain": "MTCC 183", "read by": "agar / visual reading", "value": "3.12 µg/mL"}
{"compound": "CN(Cc1ccc(S(=O)(=O)Nc2ccc([N+](=O)[O-])cc2)cc1)CC(O)(Cn1cncn1)c1ccc(F)cc1F", "strain": "98 001", "read by": "resazurin", "value": "0.018 µg/mL"}
{"compound": "C[C@@H]1CC(=O)N(c2ccc([N+](=O)[O-])cc2)C1=O", "strain": "ATCC 10231", "read by": "broth dilution / turbidity", "value": "62.5 µg/mL"}
{"compound": "Cc1ccc(-c2cc(-c3cc4cc(F)ccc4oc3=O)nc(NS(=O)(=O)c3ccccc3)c2C#N)cc1", "strain": "MTCC 227", "read by": "turbidity", "value": "1000 µg/mL"}
{"compound": "C[C@@H]1C[C@@H](O)c2c(O[C@H]3O[C@H](CO)[C@@H](O)[C@H]3O)cccc2O1", "strain": "ATCC 32354", "read by": "turbidity", "value": ">128 µg/mL"}
{"compound": "CN(C)c1ccc(/C=C2/SC(=O)N(CC(=O)Nc3nc4ccc(SC#N)cc4s3)C2=O)cc1", "strain": "MTCC 227", "read by": "broth dilution / visual reading", "value": "200 µg/mL"}
{"compound": "COc1ccc(-c2nnc(SCC(O)(Cn3cncn3)c3ccc(F)cc3F)n2N)cc1", "strain": "ATCC 18804", "read by": "broth dilution", "value": ">64 µg/mL"}
{"compound": "N#CSc1ccc2nc(NC(=O)CN3C(=O)S/C(=C/c4ccc(F)cc4)C3=O)sc2c1", "strain": "MTCC 227", "read by": "broth dilution / visual reading", "value": "500 µg/mL"}
{"compound": "CC(C)(O)c1cn(-c2ccc(Cl)cc2)nn1", "strain": "URM 4125", "read by": "broth dilution", "value": "256 µg/mL"}
{"compound": "CC[C@@H]([C@H](C)O)n1ncn(-c2ccc(N3CCN(c4ccc(OC[C@@H]5CO[C@@](Cn6cncn6)(c6ccc(F)cc6F)C5)cc4)CC3)cc2)c1=O", "strain": "15 isolates", "read by": "broth dilution", "conditions": "pH 5", "value": "0.03 µg/mL"}
{"compound": "N#Cc1c(-c2ccc(O)cc2)cc(-c2cc3cc(F)ccc3oc2=O)nc1NS(=O)(=O)c1ccccc1", "strain": "MTCC 227", "read by": "turbidity", "value": "250 µg/mL"}
{"compound": "Cc1ccccc1N1C(=O)C[C@@H](C)C1=O", "strain": "ATCC 10231", "read by": "broth dilution / turbidity", "value": "125 µg/mL"}
{"compound": "CCCc1ccc(NS(=O)(=O)c2ccc(CN(C)CC(O)(Cn3cncn3)c3ccc(F)cc3F)cc2)cc1", "strain": "DSY735", "read by": "resazurin", "value": "0.29 µg/mL"}
{"compound": "N#Cc1c(-c2cccc(Cl)c2)cc(-c2cc3cc(F)ccc3oc2=O)nc1NS(=O)(=O)c1ccccc1", "strain": "MTCC 227", "read by": "turbidity", "value": "1000 µg/mL"}
{"compound": "N#CSc1ccc2nc(NC(=O)CN3C(=O)S/C(=C/c4cccc(Oc5ccccc5)c4)C3=O)sc2c1", "strain": "MTCC 227", "read by": "broth dilution / visual reading", "value": "1000 µg/mL"}
{"compound": "C[C@H]1[C@H](O)[C@@H](C)/C=C/C=C/C=C/C=C/C=C/C=C/C=C/[C@H](O[C@@H]2O[C@H](C)[C@@H](O)[C@H](N)[C@@H]2O)C[C@@H]2O[C@](O)(C[C@@H](O)C[C@@H](O)CC[C@H](O)[C@@H](O)C[C@@H](O)CC(=O)O[C@H]1C)C[C@H](O)[C@H]2C(=O)O", "strain": "ATCC 10231", "read by": "broth dilution / resazurin", "value": "0.49 µg/mL"}
{"compound": "Oc1ccc(CCN=C=S)cc1", "strain": "5108 multidrug-resistant", "read by": "visual reading", "value": "4 µg/mL"}
{"compound": "CCc1nc(CCC(=O)O)cnc1CCC(=O)O", "strain": "ATCC 32354", "read by": "turbidity", "value": ">128 µg/mL"}
{"compound": "CCCCCCN(CCCCCC)c1ccc(/C=C2/SC(=O)N(CC(=O)Nc3nc4ccc(SC#N)cc4s3)C2=O)cc1", "strain": "MTCC 227", "read by": "broth dilution / visual reading", "value": "250 µg/mL"}
{"compound": "CN(Cc1ccc(S(=O)(=O)Nc2ccccc2)cc1)CC(O)(Cn1cncn1)c1ccc(F)cc1F", "strain": "98 001", "read by": "resazurin", "value": "0.004 µg/mL"}
{"compound": "O=C1NC(=O)/C(=C\\c2cccc(Oc3ccccc3)c2)S1", "strain": "MTCC 227", "read by": "broth dilution / visual reading", "value": "250 µg/mL"}
{"compound": "CC(C)S(=O)(=O)N1CCN(c2cnn(-c3cc(F)cc(F)c3)c(=O)c2OC2CCC(F)C2)CC1", "strain": "CLY16996", "read by": "broth dilution", "value": "0.03 µg/mL"}
{"compound": "Nn1c(SCC(O)(Cn2cncn2)c2ccc(F)cc2F)nnc1-c1cccc(Br)c1", "strain": "IRFC 36", "read by": "broth dilution", "value": ">64 µg/mL"}
{"compound": "CCN1CCN(c2nc(Nc3ccc(C(=O)/C=C/c4ccccc4O)cc3)nc3ccccc23)CC1", "strain": "MTCC 183", "read by": "agar / visual reading", "value": "200 µg/mL"}
{"compound": "N#Cc1c(-c2cccc(O)c2)cc(-c2cc3cc(F)ccc3oc2=O)nc1NS(=O)(=O)c1ccccc1", "strain": "MTCC 227", "read by": "turbidity", "value": "250 µg/mL"}
{"compound": "Nc1[nH]c(=O)ncc1F", "strain": "10 isolates", "read by": "broth dilution", "conditions": "pH 7", "value": "1 µg/mL"}
{"compound": "CCN1CCN(c2nc(NN=C3SCC(=O)N3c3ccccc3C)nc3ccccc23)CC1", "strain": "MTCC 183", "read by": "agar / visual reading", "value": "200 µg/mL"}
{"compound": "CN(Cc1ccc(NS(=O)(=O)c2ccccc2)cc1)CC(O)(Cn1cncn1)c1ccc(F)cc1F", "strain": "98 001", "read by": "resazurin", "value": "0.015 µg/mL"}
{"compound": "COC(=O)[C@H]1[C@@H]2C[C@@H](O[C@@H]3O[C@H](C)[C@@H](O)[C@H](N)[C@@H]3O)/C=C/C=C/C=C/C=C/C=C/C=C/C=C/[C@H](C)[C@@H](O)[C@H](C)[C@H](C)OC(=O)C[C@H](O)C[C@H](O)[C@@H](O)CC[C@H](O)C[C@H](O)C[C@](O)(C[C@@H]1O)O2", "strain": "15 isolates", "read by": "broth dilution", "conditions": "pH 5", "value": "4 µg/mL"}
{"compound": "O=c1c(OC2CCCC2)c(N2CCN(S(=O)(=O)NCc3ccccc3)CC2)cnn1-c1cccc(Cl)c1", "strain": "C697", "read by": "broth dilution", "value": "0.125 µg/mL"}
{"compound": "CC1C(=O)N(c2ccccc2)C(=O)C1C", "strain": "ATCC 10231", "read by": "broth dilution / turbidity", "value": "125 µg/mL"}
{"compound": "S=C=NCCCCCCCN=C=S", "strain": "90030", "read by": "visual reading", "value": "<1 µg/mL"}
{"compound": "Nn1c(SCC(O)(Cn2cncn2)c2ccc(F)cc2F)nnc1-c1ccc(Cl)cc1", "strain": "IRFC 36", "read by": "broth dilution", "value": ">64 µg/mL"}
{"compound": "O=[N+]([O-])c1ccccc1NC(=S)Nc1nc(N2CCN(c3ccccc3)CC2)c2ccccc2n1", "strain": "MTCC 183", "read by": "agar / visual reading", "value": "50 µg/mL"}
{"compound": "COc1cccc(-c2cc(-c3cc4cc(F)ccc4oc3=O)nc(NS(=O)(=O)c3ccccc3)c2C#N)c1", "strain": "MTCC 227", "read by": "turbidity", "value": "1000 µg/mL"}
{"compound": "COc1cc(/C=C2/SC(=O)NC2=O)cc(OC)c1OC", "strain": "MTCC 227", "read by": "broth dilution / visual reading", "value": "500 µg/mL"}
{"compound": "CN(Cc1ccc(NS(=O)(=O)c2ccc([N+](=O)[O-])cc2)cc1)CC(O)(Cn1cncn1)c1ccc(F)cc1F", "strain": "98 001", "read by": "resazurin", "value": "0.03 µg/mL"}
{"compound": "N=C(N)c1ccc(OCCCCCCOc2ccc(C(=N)N)cc2)cc1", "strain": "Ca1", "read by": "agar diffusion / agar", "value": "29 µg/mL"}
{"compound": "Nn1c(SCC(O)(Cn2cncn2)c2ccc(F)cc2F)nnc1-c1ccccc1", "strain": "IRFC 37", "read by": "broth dilution", "value": ">64 µg/mL"}
{"compound": "CC1CC(=O)N(CCCCc2ccccc2)C1=O", "strain": "ATCC 10231", "read by": "broth dilution / turbidity", "value": "62.5 µg/mL"}
{"compound": "N#CSc1ccc2nc(NC(=O)CN3C(=O)S/C(=C/c4ccc(Cl)cc4)C3=O)sc2c1", "strain": "MTCC 227", "read by": "broth dilution / visual reading", "value": "1000 µg/mL"}
{"compound": "C[C@H]1[C@H](O)[C@@H](C)/C=C/C=C/C=C/C=C/C=C/C=C/C=C/[C@H](O[C@@H]2O[C@H](C)[C@@H](O)[C@H](N)[C@@H]2O)C[C@@H]2O[C@](O)(C[C@@H](O)C[C@@H](O)CC[C@H](O)[C@@H](O)C[C@@H](O)CC(=O)O[C@H]1C)C[C@H](O)[C@H]2C(=O)O", "strain": "Clinical isolate", "read by": "absorbance", "value": "0.5 µg/mL"}
{"compound": "Nn1c(SCC(O)(Cn2cncn2)c2ccc(Cl)cc2Cl)nnc1-c1ccc(F)cc1", "strain": "PTCC 6027", "read by": "broth dilution", "value": ">64 µg/mL"}
{"compound": "Cc1ccc(/C=C2/SC(=O)NC2=O)cc1", "strain": "MTCC 227", "read by": "broth dilution / visual reading", "value": "250 µg/mL"}
{"compound": "CCC(C)CC(C)CCCCCCCCC(=O)N[C@H]1C[C@@H](O)[C@H](NCCN)NC(=O)[C@@H]2[C@@H](O)CCN2C(=O)[C@H]([C@H](O)CCN)NC(=O)[C@H]([C@H](O)[C@@H](O)c2ccc(O)cc2)NC(=O)[C@@H]2C[C@@H](O)CN2C(=O)[C@H]([C@@H](C)O)NC1=O", "strain": "15 isolates", "read by": "broth dilution", "conditions": "pH 7", "value": "0.06 µg/mL"}

Repeating the final 7 entries:

| compound | strain | read by | conditions | value |
|---|---|---|---|---|
| Nn1c(SCC(O)(Cn2cncn2)c2ccc(F)cc2F)nnc1-c1ccccc1 | IRFC 37 | broth dilution | - | >64 µg/mL |
| CC1CC(=O)N(CCCCc2ccccc2)C1=O | ATCC 10231 | broth dilution / turbidity | - | 62.5 µg/mL |
| N#CSc1ccc2nc(NC(=O)CN3C(=O)S/C(=C/c4ccc(Cl)cc4)C3=O)sc2c1 | MTCC 227 | broth dilution / visual reading | - | 1000 µg/mL |
| C[C@H]1[C@H](O)[C@@H](C)/C=C/C=C/C=C/C=C/C=C/C=C/C=C/[C@H](O[C@@H]2O[C@H](C)[C@@H](O)[C@H](N)[C@@H]2O)C[C@@H]2O[C@](O)(C[C@@H](O)C[C@@H](O)CC[C@H](O)[C@@H](O)C[C@@H](O)CC(=O)O[C@H]1C)C[C@H](O)[C@H]2C(=O)O | Clinical isolate | absorbance | - | 0.5 µg/mL |
| Nn1c(SCC(O)(Cn2cncn2)c2ccc(Cl)cc2Cl)nnc1-c1ccc(F)cc1 | PTCC 6027 | broth dilution | - | >64 µg/mL |
| Cc1ccc(/C=C2/SC(=O)NC2=O)cc1 | MTCC 227 | broth dilution / visual reading | - | 250 µg/mL |
| CCC(C)CC(C)CCCCCCCCC(=O)N[C@H]1C[C@@H](O)[C@H](NCCN)NC(=O)[C@@H]2[C@@H](O)CCN2C(=O)[C@H]([C@H](O)CCN)NC(=O)[C@H]([C@H](O)[C@@H](O)c2ccc(O)cc2)NC(=O)[C@@H]2C[C@@H](O)CN2C(=O)[C@H]([C@@H](C)O)NC1=O | 15 isolates | broth dilution | pH 7 | 0.06 µg/mL |

Blank or dashed fields: not listed here.